The results in this text go back to ChEMBL document CHEMBL3596151, “Elucidation of the in vitro and in vivo activities of bridged 1,2,4-trioxolanes, bridged 1,2,4,5-tetraoxanes, tricyclic monoperoxides, silyl peroxides, and hydroxylamine derivatives against Schistosoma mansoni” (Bioorg Med Chem, 2015).

SMILES strings stand for the structures. Active and inactive are the calls of the source. The rule behind the calls is not given here.

The subject of the test is Schistosoma mansoni. The test is described as follows: Antischistosomal activity against newly transformed Schistosoma mansoni cercariae assessed as decrease in viability at 12.5 ug/ml after 72 hrs by microscopic analysis. It counts as functional, organism-based.
As for `CC(=O)CCC1(Cc2ccc([N+](=O)[O-])cc2)[C@]2(C)OO[C@@]1(C)OO2` (stereo partly drawn), the inhibition result was “inactive”.

As to `CC(C)C[C@]12OO[C@](C)(OO1)C2C` (stereo partly drawn), the inhibition entry was “inactive”.

Turning to `CC(C)(C)[C@]12C[C@](C(C)(C)C)(OO1)OO2`, the inhibition result is “inactive”.
